Anti-infective test results gathered from many reports (values: NIAID ChemDB through PubChem).

Shared fields: tests in culture; agent: HIV-1

ECn: concentration that inhibits the pathogen or its effect by n%.

| compound | conditions | measure | cell line | strain | read by | changes | result |
|---|---|---|---|---|---|---|---|
| O=C(c1ccccc1)N(CCc1ccccc1)C[C@H](O)CN(CC1CCCC1)S(=O)(=O)CC1CCS(=O)(=O)CC1 |  | EC50 | CEM | IIIB | p24 |  | <1 µM |
| CCc1cccc2c(C(=O)C(=O)N3CCN(C(=O)c4ccccc4)CC3)c[nH]c12 |  | EC50 | MT-2 |  | RT activity |  | <10 µM |
| COC[C@@H](c1ccc(C(F)(F)F)cc1)N1CCN(C2(C)CCN(C(=O)c3c(C)ncnc3C)CC2)C[C@@H]1C |  | EC50 | PBMC | R14/S |  | V535M | 0.00045 µM |
| C#CCOc1cc(NC(=S)OC(C)C)ccc1Cl |  | EC50 | CEM |  | syncytia | RT-Y181C | 10.57 µM |
| CCN1c2ncc(CCOc3ccc(CCC(=O)O)c4ccccc34)cc2C(=O)Nc2c(C)cc(Cl)nc21 |  | EC50 | C8166 | WT | p24 |  | <0.1 µM |
| CN[C@@]12CC[C@]3(C)[C@H](CC[C@@H]4[C@@]5(C)CC[C@H](OC(=O)CC(C)(C)C(=O)O)C(C)(C)[C@@H]5CC[C@]43C)C1=C(C(C)C)C(=O)C2 | 30% human serum | EC50 | MT-2 | IIIB | RT activity |  | <0.199 µM |
| CCN1c2ncc(CCOc3ccc(S(=O)(=O)NCC(=O)O)c4ccccc34)cc2C(=O)N(C)c2cccnc21 |  | EC50 | C8166 |  | p24 | RT-K103N Y181C | 0.1–1 µM |
| CC(C)(C)c1cc(CS(=O)(=O)N(CC2CCCC2)C[C@@H](O)CN(CCc2ccccc2)C(=O)c2ccccc2)no1 |  | EC50 | CEM | IIIB | p24 |  | <1 µM |
| CCN1c2ncc(CCOc3ccc(CCC(=O)O)c4ccccc34)cc2C(=O)N(C)c2ccc(Cl)nc21 |  | EC50 | C8166 | WT | p24 |  | <0.1 µM |
| O=C1Nc2ccc(Cl)cc2[C@@](C#CC2CC2)(C(F)(F)F)N1 |  | EC90 |  |  |  | RT-K103N | 0.01 µM |
| Cc1cc(/C=C/C#N)cc(C)c1Oc1nc(NC2CCN(Cc3cccc(F)c3)CC2)nc2ccsc12 |  | EC50 | MT-4 | IIIB | MTT | NNRTI-resistant (RT Y181C) | 0.0345 µM |
| C=CCOc1cc(NC(=S)OC(C)C)ccc1Cl |  | EC50 | CEM |  | syncytia | RT-L100I | 10.5 µM |
| O=C(c1ccccc1)N(CCc1ccccc1)C[C@H](O)CN(CC1CCCC1)S(=O)(=O)Cc1cnco1 |  | EC90 | CEM | IIIB | p24 |  | 1 µM |
| O=C(C(=O)N1CCN(C(=O)c2ccccc2O)CC1)c1c[nH]c2cccc(F)c12 |  | EC50 | HeLa + HELA CD4+/CCR5 |  | luciferase |  | <10 µM |
| C[C@H]1CO[C@@H]2Cn3cc(C(=O)NCc4ccc(F)cc4F)c(=O)c(O)c3C(=O)N12 |  | EC50 | CBMC | NL4-3 | RT activity | G118R | 0.0045 µM |
| C#CCOC(=O)c1cc(NC(=S)OC(C)C)ccc1Cl |  | EC50 | CEM |  | syncytia | RT-E138K | 19.24 µM |
| Cc1nnc(-c2cccc(-c3cccc(C(=O)N4CCCCC4)c3)c2)o1 | pseudotyped | EC50 | TZM-bl | CE0217 | luminescence |  | >30 µM |
| Cc1ccc(CN2CCC(Nc3nc(Oc4c(C)cc(/C=C/C#N)cc4C)c4sccc4n3)CC2)cc1 |  | EC50 | MT-4 | IIIB | MTT | NNRTI-resistant (RT Y188L) | 0.138 µM |
| O=C(C(=O)N1CCN(C(=O)c2ccccc2)CC1)c1c[nH]c2cc(F)c(Br)c(F)c12 |  | EC50 | HeLa + HELA CD4+/CCR5 |  | luciferase |  | <10 µM |
| Cc1cc(S(N)(=O)=O)ccc1NC(=O)COc1ccc(Cl)cc1C(=O)c1cc(F)cc(C(F)(F)F)c1 |  | EC50 | HELA MAGI | IIIB | luciferase | RT-V108I | 0.0019 µM |
| CC(C)=CCOc1cc(NC(=S)c2ccsc2C)ccc1Cl |  | EC50 | CEM + CEM-SS | Pyridinone-resistant (RT Y181C K103N) | cytopathic effect / XTT | RT-K103N Y181C | >2 µM |
| CC(C)C1=C2C3CCC4[C@@]5(C)CC[C@H](OC(=O)CC(C)(C)C(=O)O)C(C)(C)C5CC[C@@]4(C)[C@]3(C)CC[C@@]2(NC(=O)NC(C)(C)C(F)(F)F)CC1=O | 30% human serum | EC50 | MT-2 | IIIB | RT activity |  | <0.199 µM |
| CC(C)(C)OC(=O)c1cc(NC(=S)OC(C)(C)C)ccc1Cl |  | EC50 | CEM |  | syncytia | RT-Y181C | >29.08 µM |
| CC(C)(C)S(=O)(=O)N(CC1CCCC1)C[C@@H](O)CN(CCc1ccccc1)C(=O)c1ccccc1 |  | EC50 | CEM | IIIB | p24 |  | <1 µM |
| CCOC(=O)COc1cc(NC(=S)OC(C)C)ccc1Cl |  | EC50 | CEM |  | syncytia | RT-V106A | 6.027 µM |
| COc1ccc(S(=O)(=O)N(CCC(O)CN(CC(C)C)S(=O)(=O)c2ccccc2)CC(C)C)cc1 |  | EC50 | CEM | IIIB | p24 |  | <1 µM |
| Cc1cncc(C(=O)N(CCN(C)C)C[C@H](O)[C@@]23CC[C@]4(C)[C@H](CC[C@@H]5[C@@]6(C)CC[C@H](OC(=O)[C@H]7C[C@@H](C(=O)O)C7(C)C)C(C)(C)[C@@H]6CC[C@]54C)C2=C(C(C)C)C(=O)C3)n1 |  | EC50 | MT-2 | 92HT599 | p24 / ELISA |  | <1 µM |
| CC(C)=CCOc1cc(NC(=S)c2ccoc2C)ccc1Cl |  | EC50 | CEM + CEM-SS | Calanolide A-resistant (RT T139I) | cytopathic effect / XTT | RT-T139I | 0.04 µM |
| CC(C)=CCOc1cc(NC(=S)c2ccoc2C)ccc1Cl |  | EC50 | CEM + CEM-SS | NL4-3 | p24 | RT-V179D | 0.008 µM |
| CC(C)C1=C2[C@H]3CC[C@@H]4[C@@]5(C)CC[C@H](OC(=O)[C@H]6C[C@@H](C(=O)O)C6(C)C)C(C)(C)[C@@H]5CC[C@@]4(C)[C@]3(C)CC[C@@]2(CC(=O)NC[C@H]2CCCCN2)CC1=O |  | EC50 | MT-2 | 92HT599 | p24 / ELISA |  | <1 µM |
| CC(C)OC(=O)Nc1ccc(Cl)c(C(=O)OC(C)C)c1 |  | EC50 | CEM |  | syncytia | RT-L100I | 25.02 µM |
| CC(C)C1=C2C3CCC4[C@@]5(C)CC[C@H](OC(=O)CC(C)(C)C(=O)O)C(C)(C)C5CC[C@@]4(C)[C@]3(C)CC[C@@]2(NC(=O)OC2CCCCC2)CC1=O | 30% human serum | EC50 | MT-2 | IIIB | RT activity |  | <0.199 µM |
| CC(C)O/N=C/c1cc(NC(=S)OC(C)C)ccc1Cl |  | EC50 | CEM |  | syncytia | RT-E138K | 0.2122 µM |
| [2H]C(CNC(=O)C[C@@]12CC[C@]3(C)[C@H](CC[C@@H]4[C@@]5(C)CC[C@H](OC(=O)[C@H]6C[C@@H](C(=O)O)C6(C)C)C(C)(C)[C@@H]5CC[C@]43C)C1=C(C(C)C)C(=O)C2)(NC(=O)c1ccc(Cl)cc1)C(C)O |  | EC50 | MT-2 | 92HT599 | p24 / ELISA |  | <1 µM |
| CCOC(=O)c1cc(NC(=S)OC(C)C)ccc1C |  | EC50 | CEM |  | syncytia | RT-Y181C | 30.2 µM |
| CN1c2ccccc2C2C1C=C(C#N)C(=O)N2c1ccc([N+](=O)[O-])cc1 |  | EC50 | MT-4 | B-HXB2 | GFP / fluorescence |  | 0.17 µM |
| Cc1cc(/C=C/C#N)cc(C)c1Oc1nc(NC2CCN(Cc3ccccc3C#N)CC2)nc2ccsc12 |  | EC50 | MT-4 | IIIB | MTT | NNRTI-resistant (RT K103N) | 0.0175 µM |
| C[C@H]1[C@H](O)[C@@H](C)/C=C/C=C/C=C/C=C/C=C/C=C/C=C/[C@H](O[C@@H]2O[C@H](C)[C@@H](O)[C@H](N)[C@@H]2O)C[C@@H]2O[C@](O)(C[C@@H](O)C[C@@H](O)CC[C@H](O)[C@@H](O)C[C@@H](O)CC(=O)O[C@H]1C)C[C@H](O)[C@H]2C(=O)O |  | EC50 | PBL | NL4-3 WT | RT activity |  | <10 µM |
| CSCCOC(=S)Nc1ccc(Cl)c(C(=O)OC(C)C)c1 |  | EC50 | CEM |  | syncytia | RT-L100I | 14.37 µM |
| Cc1cc(C#N)cc(C)c1Oc1nc(NC2CCN(Cc3ccc(S(N)(=O)=O)cc3)CC2)nc2sccc12 |  | EC50 | MT-4 | IIIB | MTT | NNRTI-resistant (RT Y188L) | 0.00763 µM |
| O=C1Nc2ccc(Cl)cc2[C@@](/C=C/C2CC2)(C(F)(F)F)N1 |  | EC90 |  |  |  |  | 0.002 µM |
| CO/N=C(\C)COc1cc(NC(=S)OC(C)C)ccc1Cl |  | EC50 | CEM |  | syncytia | RT-V106A | 6.045 µM |
| CC(C)C1=C2[C@H]3CC[C@@H]4[C@@]5(C)CC[C@H](OC(=O)[C@H]6C[C@@H](C(=O)O)C6(C)C)C(C)(C)[C@@H]5CC[C@@]4(C)[C@]3(C)CC[C@@]2([C@@H](O)CNC(=O)[C@H]2CCCCN2)CC1=O |  | EC50 | MT-2 | 92HT599 | p24 / ELISA |  | <1 µM |
| CCCCOC(=S)Nc1ccc(Cl)c(C(=O)OC(C)C)c1 |  | EC50 | CEM | IIIB | syncytia |  | 0.1818 µM |
| CCNC(=O)N1CCc2c(OCCc3cnc4c(c3)C(=O)N(C)c3cccnc3N4CC)ccc(C(=O)O)c2C1 |  | EC50 | C8166 |  | p24 | RT-K103N Y181C | >1 µM |
| Cc1cc(/C=C/C#N)cc(C)c1Oc1nc(NC2CCN(Cc3ccc([N+](=O)[O-])cc3)CC2)nc2ccsc12 |  | EC50 | MT-4 | IIIB | MTT | NNRTI-resistant (RT K103N) | 0.00966 µM |
| CCCCCOC(=S)Nc1ccc(Cl)c(C(=O)OC(C)C)c1 |  | EC50 | CEM | IIIB | syncytia |  | 1.6 µM |
| CC(=O)c1ccc(C)cc1NC(C(N)=O)c1c(Cl)cccc1Cl |  | EC50 | CEM + CEM-SS | UC040-R (RT-Y181C) | cytopathic effect / XTT | RT-Y181C | >1 µM |
| O=C(C(=O)N1CCN(C(=O)c2ccccc2)CC1)c1c[nH]c2cccc(F)c12 |  | EC50 | MT-2 | BRU | RT activity |  | <10 µM |
| CC(C)OC(=S)Nc1ccc(Cl)c(C(=O)O)c1 |  | EC50 | CEM |  | syncytia | RT-Y181C | >36.53 µM |
| Nc1cccc(S(=O)(=O)N(CC2CCCC2)C[C@@H](O)CN(CCc2ccccc2)CC(=O)c2ccccc2)c1 |  | EC90 | CEM | IIIB | p24 |  | 1 µM |
| CC(C)C1=C2[C@H]3CC[C@@H]4[C@@]5(C)CC[C@H](OC(=O)CC(C)(C)C(=O)O)C(C)(C)[C@@H]5CC[C@@]4(C)[C@]3(C)CC[C@@]2(NC(=O)C2CCN(C)CC2)CC1=O | 30% human serum | EC50 | MT-2 | IIIB | RT activity |  | <0.199 µM |
| CC(C)OC(=S)Nc1ccc(Cl)c(C(=O)OC2CC2)c1 |  | EC50 | CEM |  | syncytia | RT-E138K | 2.071 µM |
| CC(C)C1=C2[C@H]3CC[C@@H]4[C@@]5(C)CC[C@H](OC(=O)[C@H]6C[C@@H](C(=O)O)C6(C)C)C(C)(C)[C@@H]5CC[C@@]4(C)[C@]3(C)CC[C@@]2(CCNC(=O)c2ccccn2)CC1=O |  | EC50 | MT-2 | 92HT599 | p24 / ELISA |  | <1 µM |
| CC(=O)Oc1cccc(C(=O)N2CCN(C(=O)C(=O)c3c[nH]c4cccc(F)c34)CC2)c1 |  | EC50 | HeLa + HELA CD4+/CCR5 |  | luciferase |  | <10 µM |
| CC(C)OC(=O)c1cc(NC(=S)OC(C)C)ccc1Cl |  | EC50 | CEM |  | syncytia | RT-V106A | 2.06 µM |
| O=C(O)c1cc(-n2cccc2)ccc1Cl |  | EC50 | MT-2 | SF2 X4R5 CLADE B | p24 |  | 4.75 µM |
| CC(C)C1=C2[C@H]3CC[C@@H]4[C@@]5(C)CC[C@H](OC(=O)CC(C)(C)C(=O)O)C(C)(C)[C@@H]5CC[C@@]4(C)[C@]3(C)CC[C@@]2(NC(=O)CCN2CCCC2=O)CC1=O | 30% human serum | EC50 | MT-2 | IIIB | RT activity |  | <0.199 µM |
| Cc1cc(/C=C/C#N)cc(C)c1Oc1nc(NC2CCN(Cc3ccc(F)cc3)CC2)nc2ccsc12 |  | EC50 | MT-4 | IIIB | MTT | NNRTI-resistant (RT E138K) | 0.0349 µM |
| CC(=O)c1c(C)nc(-c2ccccc2)nc1NC(=O)c1ccccc1 |  | EC50 | HeLa | A-92UG029 | GFP / fluorescence |  | 2 µM |
| CCOC(=O)C(C)Oc1cc(NC(=S)OC(C)C)ccc1Cl |  | EC50 | CEM |  | syncytia | RT-L100I | 18.79 µM |
| CC(C)C1=C2C3CCC4[C@@]5(C)CC[C@H](OC(=O)CC(C)(C)C(=O)O)C(C)(C)C5CC[C@@]4(C)[C@]3(C)CC[C@@]2(NC(=O)OC2CCN(C(=O)OC(C)(C)C)CC2)CC1=O | 30% human serum | EC50 | MT-2 | IIIB | RT activity |  | <0.199 µM |
| O=C(C(=O)N1CCN(C(=O)c2ccccc2)CC1)c1c[nH]c2c(F)cccc12 |  | EC50 | HeLa + HELA CD4+/CCR5 |  | luciferase |  | <10 µM |
| CSC(=Nc1ccc(Cl)c(C(=O)OC(C)C)c1)OC(C)C |  | EC50 | CEM | IIIB | syncytia |  | >30.13 µM |
| CC(C)C1=C2[C@H]3CC[C@@H]4[C@@]5(C)CC[C@H](OC(=O)[C@H]6C[C@@H](C(=O)O)C6(C)C)C(C)(C)[C@@H]5CC[C@@]4(C)[C@]3(C)CC[C@@]2([C@@H](O)CNC(=O)C(C)(C)NC(=O)c2cc(C(C)C)[nH]n2)CC1=O |  | EC50 | MT-2 | 92HT599 | p24 / ELISA |  | <1 µM |
| CC(C)OC(=S)Nc1ccc(Cl)c(C(=O)OCC[Si](C)(C)C)c1 |  | EC50 | CEM |  | syncytia | RT-L100I | 6.685 µM |
| C[C@@H]1CN(C(=O)c2ccccn2)CCN1C(=O)C(=O)c1c[nH]c2c(F)ccc(F)c12 |  | EC50 | HeLa + HELA CD4+/CCR5 |  | luciferase |  | <10 µM |
| CC(C)C1=C2C3CCC4[C@@]5(C)CC[C@H](OC(=O)CC(C)(C)C(=O)O)C(C)(C)C5CC[C@@]4(C)[C@]3(C)CC[C@@]2(NC(=O)C(C)N(C)C)CC1=O | 30% human serum | EC50 | MT-2 | IIIB | RT activity |  | <0.199 µM |

An empty or dashed field is not shown. a–b is a range or a potency band. Conditions beyond the fields shown may differ between rows.